Laboratory results as given in publication PMC3199867, “Targeting surface nucleolin with multivalent HB-19 and related Nucant pseudopeptides results in distinct inhibitory mechanisms depending on the malignant tumor cell type” (BMC Cancer, 2011).

Tested on: surface nucleolin
Assay: HIV-1 LAI entry into HeLa-CD4-LTR-LacZ cells (β-galactosidase): function of surface nucleolin
Assay type: cell-based, human
Conditions: 0.05-0.8 μM, β-galactosidase at 48 h post-infection
Excerpt: Surface nucleolin serves as a low affinity receptor implicated in the binding and entry of HIV-1 particles into permissive cells. Consequently, HB-19 treatment of cells prevents HIV binding to cells and thus HIV entry and infection. Here HIV-1 LAI entry was monitored in HeLa-CD4-LTR-LacZ cells containing the bacterial lacZ gene under the control of HIV-1 LTR. Virus entry and replication result in trans-activation of HIV-1 LTR by the viral Tat protein, leading to the expression of β-galactosidase. At 48 h post-infection, cell monolayers are lysed in a phosphate buffer containing Nonidet P-40 (Sigma) (1%; v ⁄ v) and assayed for β-galactosidase activity by measuring optical density at 570 nm.
Figure 2 HB-19 and related Nucant pseudopeptides antagonize surface nucleolin and trigger its down regulation. A. Multivalent pseudopeptides block the biological function of surface nucleolin for HIV entry. […] At 48 h post-infection, the β-galactosidase activity was measured in cell extracts directly to monitor HIV entry (Methods). The abscissa gives % Activity of surface nucleolin calculated from the optical density measurements at 570 nm. […] Cytoplasmic (containing cytoplasmic as well as surface nucleolin) and nuclear extracts were analyzed by immunoblotting using mAb D3 as described (Methods)(panels Surface/cytoplasmic NCL, Nuclear NCL). […]

CC(=O)N[C@@H](CCCCNC(=O)[C@H](CCCNC(=N)N)NC(=O)[C@@H]1CCCN1C[C@@H](N)CCCCN)C(=O)NC(C)(C)C(=O)NCC(=O)N[C@@H](CCCCNC(=O)[C@H](CCCNC(=N)N)NC(=O)[C@@H]1CCCN1C[C@@H](N)CCCCN)C(=O)NC(C)(C)C(=O)NCC(=O)N[C@@H](CCCCNC(=O)[C@H](CCCNC(=N)N)NC(=O)[C@@H]1CCCN1C[C@@H](N)CCCCN)C(=O)NC(C)(C)C(=O)NCC(=O)N[C@@H](CCCCNC(=O)[C@H](CCCNC(=N)N)NC(=O)[C@@H]1CCCN1C[C@@H](N)CCCCN)C(=O)NC(C)(C)C(=O)NCC(=O)N[C@@H](CCCCNC(=O)[C@H](CCCNC(=N)N)NC(=O)[C@@H]1CCCN1C[C@@H](N)CCCCN)C(=O)NC(C)(C)C(=O)NCC(=O)N[C@@H](CCCCNC(=O)[C@H](CCCNC(=N)N)NC(=O)[C@@H]1CCCN1C[C@@H](N)CCCCN)C(=O)NC(C)(C)C(=O)NCC(N)=O [Nucant N6L]
inhibitory activity on HIV-1 entry, fold more active compared to the pentavalent constructs N3 and HB-19: ≥ 4 fold
